# Share of PSTVd loop 6 variants by leaf site

PSTVd intermediate strain, loop 6: wild type UGACCGCGAG, pool pattern UNNNCGNNNG; upper and lower strand joined, each 5' to 3', the first 5 letters being the upper strand, closing pairs included.

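A pool of all variants was put on leaves of three Nicotiana benthamiana plants. Progeny were sequenced from the inoculated region (day 5), the margin of the inoculated leaf (day 10) and systemic leaves (day 12).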

Numbers give reads per thousand; 0 = not seen among the reads, higher = more abundant. Each value is the mean of three plants. "Pool" is the share in the plasmid pool used as inoculum, on the same scale. The inoculated region was read from the minus strand, the other sites from the plus strand. IR is the inoculated region, LM the leaf margin, Sys the systemic leaves.

UACGCGUAAG (pool 0.105) gave IR 0.0239; LM 0; Sys 0. With UCUACGUGCG (pool 0.327) the assay gave IR 0.143; LM 0.00920; Sys 0. UCCGCGCCGG (pool 0.248) read IR 0.0900; LM 0.0261; Sys 0. UUCGCGCGAU (pool 0.0131) read IR 0.0785; LM 0; Sys 0. UACACGCACU (pool 0.0131) read IR 0; LM 0; Sys 0.

With UAGACGCCGG (pool 0.105) the assay gave IR 0.0471; LM 0; Sys 0. With UGAUCGCAUG (pool 0.157) the assay gave IR 0.0831; LM 0; Sys 0. With UGGCCGGUUG (pool 0.209) the assay gave IR 0.168; LM 0.00773; Sys 0. With UGUGCGAAAG (pool 0.301) the assay gave IR 0.119; LM 0.00773; Sys 0. UCGACGGAAG (pool 0.144) gave IR 0.0661; LM 0.00773; Sys 0.

With UAGGCGCGAG (pool 0.353) the assay gave IR 0.154; LM 0.0460; Sys 0.0265. With UCACCGCGUG (pool 0.157) the assay gave IR 0.124; LM 0.0331; Sys 0.00673. UGAACGCUAG (pool 0.144) gave IR 0.762; LM 0.115; Sys 0.00599. With UGACCGCUAG (pool 0.0784) the assay gave IR 0.250; LM 0.503; Sys 0.615. With UCGACGAGCG (pool 0.183) the assay gave IR 0.114; LM 0; Sys 0.

UCUGCGUGUG (pool 0.261) read IR 0.0892; LM 0; Sys 0. UUGUCGAGUG (pool 0.340) gave IR 0.138; LM 0.00773; Sys 0. With UCAACGACCG (pool 0.157) the assay gave IR 0.0894; LM 0; Sys 0. With UCGUCGCAGG (pool 0.157) the assay gave IR 0.0835; LM 0.00920; Sys 0. UCGGCGCGAU (pool 0.0131) gave IR 0.0962; LM 0.00920; Sys 0.

A selection of 2 entries from above:

{"sequence": "UGAACGCUAG", "pool": "0.144", "IR": 0.762, "LM": 0.115, "Sys": 0.00599}
{"sequence": "UCUGCGUGUG", "pool": "0.261", "IR": 0.0892, "LM": 0, "Sys": 0}

The authors trace changes outside the varied positions to PCR and sequencing errors or to mutation in the plant; presence does not show that a variant is infectious alone. Wild type was 20.7 per thousand in the pool and the most common sequence in every sample (inoculated region 195, 198, 203; leaf margin 629, 591, 734; systemic leaves 942, 870, 868). Samples held 36,220 to 57,551 reads, so the smallest values rest on one or two reads.

From the data files of Wu et al. 2024, doi:10.1371/journal.ppat.1012142.